Measured values from several laboratories, pooled; numbers as filed in NIAID ChemDB.

Common to all: whole-cell or culture tests; organism: Mycobacterium tuberculosis

An empty or dashed field is not shown.

| compound | strain or isolate | mutations | method | read-out | dose | result |
|---|---|---|---|---|---|---|
| N=C1C=CC(O)(c2nc3ccccc3s2)C(SCC(NC(=O)CCC(N)C(=O)O)C(=O)NCC(=O)O)C1 | H37Rv |  |  | EC50 |  | >6.25 µg/mL |
| CCn1c(SCC(=O)N/N=C/c2cc(O)ccc2Br)nnc1-c1ccco1 | H37Rv |  |  | inhibition | 6.25 µg/mL | 6% |
| C=CCCCCO/N=C/c1c2c(O)c3c(O)c(C)c4c(c3c1O)C(=O)[C@@](C)(O/C=C/[C@H](OC)[C@@H](C)[C@@H](OC(C)=O)[C@H](C)[C@H](O)[C@H](C)[C@@H](O)[C@@H](C)/C=C/C=C(/C)C(=O)N2)O4 | H37Rv |  |  | MIC |  | 0.5 µg/mL |
| Cn1nc2c(c(Cl)c1=O)Nc1ccccc1O2 | H37Rv |  | BACTEC | MIC bound |  | >12.5 µg/mL |
| NNC(=O)c1ccncc1 | MDR |  | resazurin | MIC |  | 12.5 µg/mL |
| CCn1c(SCC(=O)N/N=C/c2cccc([N+](=O)[O-])c2)nnc1-c1ccco1 | H37Rv |  |  | inhibition | 6.25 µg/mL | 3% |
| COc1ccc2cc1-c1cc(ccc1O)C[C@@H]1NCCc3cc4c(cc31)Oc1c(c(OC)cc3c1[C@H](C2)N(C)CC3)O4 | H37Ra |  | resazurin | MIC |  | 3.1 µg/mL |
| Cc1cn2c(C(=O)NCc3ccc(N4CCC(c5ccc(OC(F)(F)F)cc5)CC4)cc3)c(C)nc2s1 | H37Rv | cydKO | resazurin / fluorescence | MIC |  | 0.002 µM |
| CC(=O)O[C@@H]1OC=C2CC[C@H]3[C@]4(C)CC[C@H]5C(C)(C)CCC[C@]5(C)[C@H]4C[C@@H](OC(C)=O)[C@]3(C)[C@H]21 | H37Ra |  |  | MIC |  | 6 µM |
| COc1ccc(C2=C/C(=C3\C(=O)C=C(C)OC3=O)SS2)cc1 | H37Rv |  | BACTEC | MIC |  | ≥12.5 µg/mL |
| CC1CN(c2c(F)cc3c(=O)c(C(=O)O)cn(C4CC4)c3c2O)CCN1.O=S1CCCC1.[Cl][Rh]([Cl])[Cl] | ATCC 27294 |  |  | MIC |  | 0.68 µg/mL |
| CO[C@H]1/C=C/O[C@@]2(C)Oc3c(C)c(O)c4c(O)c(c(/C=N/OC/C=C(\C)CCC=C(C)C)c(O)c4c3C2=O)NC(=O)/C(C)=C\C=C\[C@H](C)[C@H](O)[C@@H](C)[C@@H](O)[C@@H](C)[C@H](OC(C)=O)[C@@H]1C | H37Rv |  |  | MIC |  | 5 µg/mL |
| CCn1cc(C(=O)O)c(=O)c2cc(F)c(N3CCN(c4nnc(SCC(=O)c5ccc(Cl)cc5)s4)C(C)C3)c(OC)c21 | H37Rv |  | broth dilution | MIC90 |  | 1 µg/mL |
| O=C1C=CC(O)(c2cccs2)C=C1 | H37Rv |  |  | EC50 |  | <6.25 µg/mL |
| COc1cccc(C=NN2C(=O)c3ccccc3C2=O)c1O | H37Ra |  | resazurin | MIC50 |  | >50 µg/mL |
| Cc1ccc(/C=N/NC(=O)Nc2ccc3c(c2)C(=O)C(=O)N3CN2CCN(C)CC2)cc1 | MDR |  | resazurin | MIC |  | >50 µg/mL |
| COCCOCCOCCOCCOC(=O)CCn1cc(F)c(=O)[nH]c1=O | H37Rv |  | resazurin | inhibition | 6.25 µg/mL | 0% |
| O=C(CSc1nnc(-c2ccccn2)s1)N/N=c1/scc(-c2cccc(Cl)c2)n1-c1ccccc1 | Clinical isolate 180 |  |  | MIC |  | 80 µg/mL |
| O=C(N/N=C/c1cc(=O)[nH]c(=O)[nH]1)c1ccccc1 | H37Rv |  | BACTEC | inhibition | 12.5 µg/mL | 9% |
| O=C(CSc1nnc(-c2ccccn2)s1)N/N=c1/scc(-c2ccc(Br)cc2)n1-c1ccccc1 | H37Rv |  |  | MIC |  | 40 µg/mL |
| COc1ccc2cc3[n+](cc2c1OC)CCc1cc2c(cc1-3)OCO2 | H37Rv |  |  | MIC |  | 25 µg/mL |
| C=C(C)CO/N=C/c1c2c(O)c3c(O)c(C)c4c(c3c1O)C(=O)[C@@](C)(O/C=C/[C@H](OC)[C@@H](C)[C@@H](OC(C)=O)[C@H](C)[C@H](O)[C@H](C)[C@@H](O)[C@@H](C)/C=C/C=C(/C)C(=O)N2)O4 | H37Rv |  |  | MIC |  | 0.2 µg/mL |
| Cc1cn2c(C(=O)NCc3ccc(N4CCC(Oc5cccc(C(F)(F)F)c5)CC4)c(F)c3)c(C)nc2s1 | H37Rv |  | luminescence | MIC |  | <0.39 µM |
| COc1ccc2cc1-c1cc(cc(Br)c1O)C[C@H]1c3cc4c(cc3CCN1C)Oc1c(OC)cc3c(c1O4)[C@H](C2)N(C)CC3 | H37Rv-[AS-R ATCC 35821 |  | resazurin | MIC |  | 1.5 µg/mL |
| Cc1cccc(N2CCN(CN3C(=O)C(=O)c4cc(NC(=O)N/N=C/c5ccc([N+](=O)[O-])cc5)ccc43)CC2)c1 | MDR |  | resazurin | MIC |  | 6.25 µg/mL |
| CCSC1CC(=O)CC(SCC)C1(O)c1ccccc1 | H37Rv |  |  | EC50 |  | >6.25 µg/mL |
| NNC(=O)[C@H](Cc1cnc[nH]1)NC(=O)OCc1ccccc1 | H37Rv |  | BACTEC | MIC |  | ≥12.5 µg/mL |
| Cc1cn2c(C(=O)NCc3ccc(N4CCC5(CC4)OCC(C)CO5)cc3)c(C)nc2s1 | H37Rv |  | luminescence | MIC |  | 31.7 µM |
| CCCCCCCCOc1ccc2c(c1)C(=O)c1nc3ccccc3c(=O)n1-2 | H37Rv |  |  | MIC |  | 4 µg/mL |
| O=C(CSc1nnc(-c2ccccn2)s1)N/N=c1/scc(-c2ccccc2Cl)n1-c1ccccc1 | Clinical isolate 190 |  |  | MIC |  | >80 µg/mL |
| CC(O)C1(O)C(O)CC(OC2c3cc4c(c(O)c3[C@@H]3C[C@@]2(C)OC32C=c3cc[nH]c3=N2)C(=O)c2cccc(O)c2C4=O)OC1C | H37Rv |  | BACTEC | MIC |  | 0.8 µg/mL |
| CO[C@H]1/C=C/O[C@@]2(C)Oc3c(C)c(O)c4c(O)c(c(/C=N/OC5CCCCC5)c(O)c4c3C2=O)NC(=O)/C(C)=C\C=C\[C@H](C)[C@H](O)[C@@H](C)[C@@H](O)[C@@H](C)[C@H](OC(C)=O)[C@@H]1C | H37Rv |  |  | MIC |  | 0.2 µg/mL |
| O=C1c2ccccc2C(=O)N1N=Cc1ccc(O)c(O)c1 | H37Rv |  | resazurin | MIC50 |  | >50 µg/mL |
| CCn1c(SCC(=O)NN)nnc1-c1ccco1 | H37Rv |  |  | inhibition | 6.25 µg/mL | 0% |
| CCn1cc(C(=O)O)c(=O)c2cc(F)c(N3CCN(c4nnc(SCC(=O)c5ccccc5)s4)C(C)C3)c(OC)c21 | H37Rv |  | broth dilution | inhibition | 20 µg/mL | 0% |
| NC1CCC(C(=O)O)C1 | H37Rv |  | BACTEC | MIC bound |  | >12.5 µg/mL |
| Cc1ccc(-n2c(-c3ccccc3)cs/c2=N/NC(=O)CSc2nnc(-c3ccccn3)s2)cc1 | Clinical isolate 190 |  |  | MIC |  | 40 µg/mL |
| COc1ccc(C=NN2C(=O)c3ccccc3C2=O)cc1OC | H37Ra |  | resazurin | MIC50 |  | >50 µg/mL |
| Cc1cn2c(C(=O)NCc3ccc(N4CCOCC4)c(F)c3)c(C)nc2s1 | H37Rv | QcrB5 M342I | resazurin / fluorescence | MIC |  | 1.2 µM |
| Cn1c(O)c(N=NC(=O)c2ccc(O)cc2O)c2ccccc21 | H37Rv |  | resazurin | MIC50 |  | >50 µg/mL |
| Cc1cccc(-c2cs/c(=N/NC(=O)CSc3nnc(-c4ccccn4)s3)n2-c2ccccc2)c1 | Clinical isolate 331 |  |  | MIC |  | 40 µg/mL |
| Cc1cn2c(C(=O)NCc3ccc(N4CCN(c5ccc(C(F)(F)F)cn5)CC4)c(F)c3)c(C)nc2s1 | H37Rv | QcrB4 A396T | resazurin / fluorescence | MIC |  | <0.024 µM |
| CO[C@H]1/C=C/O[C@@]2(C)Oc3c(C)c(O)c4c(O)c(c(/C=N/OCCO)c(O)c4c3C2=O)NC(=O)/C(C)=C\C=C\[C@H](C)[C@H](O)[C@@H](C)[C@@H](O)[C@@H](C)[C@H](OC(C)=O)[C@@H]1C | H37Rv |  |  | MIC |  | 0.1 µg/mL |
| O=C(O)c1ccc(N2C(=O)c3cccc([N+](=O)[O-])c3C2=O)cc1O | H37Rv |  | resazurin | MIC50 |  | 0.39 µg/mL |
| CCOCOc1ccc2c(c1)C(=O)c1nc3ccncc3c(=O)n1-2 | H37Rv |  |  | MIC |  | 0.06 µg/mL |
| CCCCN1C(=O)C(=O)N(CCc2ccc(OC)c(OC)c2)C1=O | H37Rv |  | BACTEC | inhibition | 12.5 µg/mL | -3% |
| CCCCOCCO/N=C/c1c2c(O)c3c(O)c(C)c4c(c3c1O)C(=O)[C@@](C)(O/C=C/[C@H](OC)[C@@H](C)[C@@H](OC(C)=O)[C@H](C)[C@H](O)[C@H](C)[C@@H](O)[C@@H](C)/C=C/C=C(/C)C(=O)N2)O4 | H37Rv |  |  | MIC |  | 0.2 µg/mL |
| COCN1C(=O)N2C(c3ccccc3)(c3ccccc3)C(C(=O)OC)=C(C(=O)OC)P12(c1ccccc1)c1ccccc1 | H37Rv |  | BACTEC | MIC |  | ≥12.5 µg/mL |
| O=C(N=Nc1c(O)[nH]c2ccccc12)c1ccc(Cl)cc1 | H37Rv |  | resazurin | MIC50 |  | >50 µg/mL |
| O=c1cc(-c2ccc(O)cc2)oc2cc(O[C@@H]3O[C@H](CO)[C@@H](O)[C@H](O)[C@H]3O)cc(O)c12 | H37Rv |  | BACTEC | MIC |  | ≥12.5 µg/mL |
| Cc1cccc(N2CCN(CN3C(=O)C(=O)c4cc(NC(=O)N/N=C/c5ccc(Cl)cc5)ccc43)CC2)c1 | MDR |  | resazurin | MIC |  | 25 µg/mL |
| CO[C@H]1/C=C/O[C@@]2(C)Oc3c(C)c(O)c4c(O)c(c(/C=N/N5CCN(C)CC5)c(O)c4c3C2=O)NC(=O)/C(C)=C\C=C\[C@H](C)[C@H](O)[C@@H](C)[C@@H](O)[C@@H](C)[C@H](OC(C)=O)[C@@H]1C | 6 strains (rifampicin-resistant) |  |  | MIC50 |  | 100 µg/mL |
| CC(C)c1c(O)c(O)c2c(c1O)C(=O)C(O)=C1C(C)(C)CCC[C@@]12C | H37Rv |  | BACTEC | MIC |  | ≥12.5 µg/mL |
| O=C1C=CC(O)(c2ccccc2)C=C1 | H37Rv |  |  | EC50 |  | >6.25 µg/mL |
| CCn1cc(C(=O)O)c(=O)c2cc(F)c(N3CCN(c4nnc(SCC(=O)c5ccc(O)cc5)s4)C(C)C3)c(OC)c21 | H37Rv |  | broth dilution | MIC90 |  | 15 µg/mL |
| O=C(CSc1nnc(-c2ccccn2)s1)N/N=c1/scc(-c2ccc([N+](=O)[O-])cc2)n1-c1ccccc1 | Clinical isolate 331 |  |  | MIC |  | >80 µg/mL |
| O=C(c1ccccc1)C1(O)Oc2ccccc2C1=O | H37Rv |  | BACTEC | MIC bound |  | >12.5 µg/mL |
| O=C(N=Nc1c(O)[nH]c2ccc(Br)cc12)c1ccccn1 | H37Rv |  | resazurin | MIC50 |  | >50 µg/mL |
| CCn1c(SCC(=O)N/N=C/c2ccc([N+](=O)[O-])cc2)nnc1-c1ccco1 | H37Rv |  |  | EC50 |  | >6.25 µg/mL |
| CC(C)N=c1cc2n(-c3ccc(Cl)cc3)c3ccccc3nc-2cc1Nc1ccc(Cl)cc1 | H37Rv |  | fluorescence | MIC90 |  | 0.14 µg/mL |
| O=C1C2C3C=CC(O3)C2C(=O)N1CCN1CCCCC1 | H37Rv |  | BACTEC | MIC bound |  | >12.5 µg/mL |
| O=C(N=Nc1c(O)[nH]c2ccccc12)c1ccco1 | H37Ra |  | resazurin | MIC50 |  | >50 µg/mL |
| Cc1ccc(NC(=S)NC2CCCCC2)cc1Cl | H37Rv |  | BACTEC | inhibition | 12.5 µg/mL | 97% |
| O=C1c2ccccc2-n2c1nc1cnccc1c2=O | H37Rv |  |  | MIC |  | 1 µg/mL |
| CC(=O)CC1CCC(=O)CCC(=O)OC(CC(C)=O)CCC(=O)CCC(=O)O1 | H37Rv |  | BACTEC | inhibition | 12.5 µg/mL | 10% |
| COC1(c2nc3ccc(C)cc3s2)C=CC(=NS(=O)(=O)c2ccc(C)cc2)C=C1 | H37Rv |  |  | MIC |  | >6.25 µg/mL |
| CC(C)=NNC(=O)c1n[nH]c(C)c1N=NN(C)C | H37Rv |  | BACTEC | inhibition | 12.5 µg/mL | 29% |
| Cc1ccccc1-n1c(-c2ccccc2)cs/c1=N/NC(=O)CSc1nnc(-c2ccccn2)s1 | Clinical isolate 331 |  |  | MIC |  | 40 µg/mL |
| Cc1cc(S(=O)(=O)NC2=NCCCN2)c(S)cc1Cl | H37Rv |  | BACTEC | inhibition | 12.5 µg/mL | 0% |
| CCc1ccc2c(c1)C(=O)c1nc3ccncc3c(=O)n1-2 | H37Rv |  |  | MIC |  | 0.03 µg/mL |
| COC1CC2CCC(C)C(O)(O2)C(=O)C(=O)N2CCCCC2C(=O)OC(C(C)CC2CCC(O)C(OC)C2)CC(=O)C(C)C=C(C)C(OC(=O)CN(C)C)C(OC)C(=O)C(C)CC(C)\C=C/C=C\C=C/1C | H37Rv |  | BACTEC | MIC |  | ≥12.5 µg/mL |
| O=C1C=CC(O)(c2nccs2)C=C1 | H37Rv |  |  | EC50 |  | <6.25 µg/mL |
| O=C1CN(CCN2CCOCC2)CC(=O)N2CCCCN12 | H37Rv |  | BACTEC | inhibition | 12.5 µg/mL | 16% |
| O=C1c2ccccc2-n2c1nc1ncncc1c2=O | H37Rv |  |  | MIC |  | 4 µg/mL |

4 of the rows above, restated:

compound | strain or isolate | mutations | method | read-out | dose | result
Cc1cccc(-c2cs/c(=N/NC(=O)CSc3nnc(-c4ccccn4)s3)n2-c2ccccc2)c1 | Clinical isolate 331 |  |  | MIC |  | 40 µg/mL
Cn1c(O)c(N=NC(=O)c2ccc(O)cc2O)c2ccccc21 | H37Rv |  | resazurin | MIC50 |  | >50 µg/mL
Cc1cn2c(C(=O)NCc3ccc(N4CCN(c5ccc(C(F)(F)F)cn5)CC4)c(F)c3)c(C)nc2s1 | H37Rv | QcrB4 A396T | resazurin / fluorescence | MIC |  | <0.024 µM
CCn1c(SCC(=O)N/N=C/c2ccc([N+](=O)[O-])cc2)nnc1-c1ccco1 | H37Rv |  |  | EC50 |  | >6.25 µg/mL

ECn is the concentration giving n% inhibition of infection, replication or growth. Conditions beyond the fields shown may differ between rows. MIC bound comes from a single tested concentration. Inhibition is in % at the dose shown (toxicity tests: loss of growth or viability). MIC50, MIC90 and the like: level of inhibition, or share of isolates inhibited.